# Laboratory results published in publication PMC8787487.
# What was measured:
# [1] = test system: CC[C@H](C)[C@H](N)C(=O)O; experiment: cells, lysate or membranes; conditions: 37.0 °C
# [2] = test system: CC(C)[C@H](N)C(=O)O; experiment: cells, lysate or membranes; conditions: 37.0 °C
Substance,Km [1] [µM],Vmax [1] [µmol/min/mg],Km [2] [µM],Vmax [2] [µmol/min/mg]
BrnQ3 (Bacillus anthracis),3.6 ± 1.6,0.0055,3.3 ± 1.8,0.0041
BrnQ4 (Bacillus anthracis),4.9 ± 2.9,0.0085,3.9 ± 1.6,0.0067
BrnQ5 (Bacillus anthracis),5.8 ± 3.7,0.0053,4 ± 2.5,0.0026
